{"source": "patent US20100284992A1", "about": "(priority 2006, published 2010)", "biological_target": "Pseudomonas aeruginosa hemolytic phospholipase C PlcHR2 variant T178A (Thr178Ala) (Pseudomonas aeruginosa, UniProt P06200, T178A)", "assay": "ρ-Nitrophenyl-Phosphorylcholine (NPPC) enzymatic assay, T178A PlcHR2 mutant", "details": "substrate NPPC; calculated using a Mr of 96,000 Da for PlcHR2; pH 7.2, 37° C."}
{"smiles": "C[N+](C)(C)CCOP(=O)([O-])Oc1ccc([N+](=O)[O-])cc1", "note": "[NPPC, ρ-nitrophenyl-phosphorylcholine]", "values": [{"measurement": "kcat", "result": 6, "unit": "s⁻¹"}]}
